Data as given in PubChem BioAssay AID504761 (Drosophila RNAi Screening Center, 2011).
Screen: 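Genome-wide fly cell screen for genes dengue virus requires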 (primary screen). Cells: D.Mel-2 cells from Drosophila. Knock-down reagent: long dsRNA against Drosophila genes. Treatment: infection with dengue virus type 2; dose and infection time not stated. Measurement: 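Cells stained for dengue envelope protein and imaged; percent of infected cells per well on duplicate plates, ranked by infection, with stained nuclei counted for cell number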. Reading the numbers: infection score: higher = more virus-infected cells; cell count: higher = more cells in the well. Call rule: 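Low infection ranks in the two replicates (chance level up to 0.065) followed by a retest with a 1.5-fold or larger significant decrease, p below 0.05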. Meaning of the calls: active = confirmed: knock-down lowers infection; inactive = not picked or not confirmed.
The deposit covers about 22,000 reagents; below is an unselected part of those with a known target gene and a result. In the full data, 116 (0.52%) were called active. 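Calls depend on retest data that are not deposited; infection was ranked per plate without normalising between plates; the unit of the infection score is not given.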 Raw values vary from plate to plate and are shown uncorrected. The numbers tell different reagents against one gene apart. Not stated in the record: the amount of reagent, the time to read-out.

Depletion of kz resulted in: infection score, replicate 1 = 8.23; infection score, replicate 2 = 8.11; cell count, replicate 1 = 1580; cell count, replicate 2 = 1024; inactive. After knock-down of mRpL3 the results were infection score, replicate 1 = 3.45; infection score, replicate 2 = 23.6; cell count, replicate 1 = 3822; cell count, replicate 2 = 5155; inactive. With knock-down of CG14667 #1, the record shows infection score, replicate 1 = 1.13; infection score, replicate 2 = 0.55; cell count, replicate 1 = 6711; cell count, replicate 2 = 6945; active. CG14667 #2 showed infection score, replicate 2 = 6.25; cell count, replicate 1 = 376; cell count, replicate 2 = 2112; inactive.

Records listed so far marked active (1):
CG14667 #1 → infection score, replicate 1 = 1.13; infection score, replicate 2 = 0.55; cell count, replicate 1 = 6711; cell count, replicate 2 = 6945; Call = active

Additional reagents follow:
Depletion of CG7542 resulted in: infection score, replicate 1 = 4.88; infection score, replicate 2 = 1.71; cell count, replicate 1 = 6129; cell count, replicate 2 = 6267; inactive. For Coq2 #1, the values are infection score, replicate 1 = 9.05; infection score, replicate 2 = 15.7; cell count, replicate 1 = 6174; cell count, replicate 2 = 6070; inactive. With knock-down of Coq2 #2, the screen gave infection score, replicate 1 = 4.37; infection score, replicate 2 = 14.3; cell count, replicate 1 = 5669; cell count, replicate 2 = 5380; inactive. Coq2 #3 gave infection score, replicate 1 = 16.9; cell count, replicate 1 = 3424; cell count, replicate 2 = 373; inactive. With knock-down of CG8172 #1, the screen gave infection score, replicate 1 = 8.66; infection score, replicate 2 = 21.4; cell count, replicate 1 = 2680; cell count, replicate 2 = 6047; inactive. Knock-down of CG8172 #2 came out at: infection score, replicate 1 = 6.42; infection score, replicate 2 = 6.9; cell count, replicate 1 = 6640; cell count, replicate 2 = 6235; inactive.

Silencing of CG8172 #3 came out at: infection score, replicate 1 = 4.24; infection score, replicate 2 = 2.06; cell count, replicate 1 = 6833; cell count, replicate 2 = 6172; inactive. Knock-down of Ir76a came out at: infection score, replicate 1 = 2.53; infection score, replicate 2 = 4.11; cell count, replicate 1 = 6808; cell count, replicate 2 = 6941; inactive. For halo #1, the values are infection score, replicate 1 = 1.39; infection score, replicate 2 = 1.4; cell count, replicate 1 = 6955; cell count, replicate 2 = 6780; inactive. Against halo #2 the deposit lists infection score, replicate 1 = 4.66; infection score, replicate 2 = 17.6; cell count, replicate 1 = 6462; cell count, replicate 2 = 6678; inactive.
